This note sets out measurements from PMC6985210.

The target of this data set is His6-CRP (cAMP receptor protein) (UniProt A6TEZ6). Nature of the data set: EMSA. To be noted: cAMP (1 nmol in gel), CRP 0-2 uM; EMSA: His6-CRP 0, 0.6, 1, 2 uM, room temperature 30 min, 6% native PAGE containing 1 nmol cAMP; 10 ng unlabeled probe as cold competitor; salt and pH not stated; recombinant protein; protein details: His6 (N-terminal, pET28a); label: biotin 3' end; probe letters rebuilt from the primers and the genome. (In general: Mobility shift assays separate free from complexed probe on a gel.)

For at least one entry, the source does not settle the construct or the ends of the probe. No signal at the amounts used counts as a negative.

Turning to “CAGGTCAGCTGCCACGATACCACCGACATCTTCCGGCGCAGCGCCCTGGCCGGCCCACTGGAACGGTACCACGCCGATAGGGCGCGCCGAGTCCACCCCCTGGGTGATCTCGATACGTACTTCTGCGTGCAGCACCGCCGCCCACAGCATTAAAAAACCAAATGCTACTCGTAATGCCTGCTTCATCATATCTCCCTTATCCGGGCGGAAAGCCCACGATAATTTAGCAGAATGTTAACAAACTCAAATATACAAAACTACCAAAACCCTGTGACTACCATAGATTGTTTTTCCCCGTTTGCACGGGGAAAAATGTCACTGAGGTTTGAAGTCCAGTGGCGCATTTTTGAAGACTTCATATACTGCCTGGCTAGGTGGTTTCGGAAACTTAGCCTGTCGGGCTGCGGCAAGAGCGGCCTGGCACAGAGCAGGATCACCACCTTCGGACTGTATATTTAACAACAGGCCGTCAGGAGCAAGTTTGATACGCA (double strand) [tolB promoter probe]”, the binding result is listed as “binds”.

With “TCTGATTAAACTGAAAGACGGCGTGGGCCTGCTGCCGACCTCGCTGGACATCGTCGAGAACCCGAAAAACCTGAAGATTGTTGAACTGGAGGCGCCGCAGCTGCCGCGTTCCCTGGACGATGCGCAGATTGCGCTGGCCGTTATCAACACCACTTACGCCAGCCAGATTGGCCTGACCCCGGCGAAAGACGGCATCTTTGTTGAAGGTAAAGAGTCTCCTTACGTGAACCTGATTGTGGCGCGTGAAGACAATAAAGATGCTGAGAATGTGAAAAAATTCGTTCAGGCTTACCAGAGCGATGAAGTTTACGAAGCAGCGAACAAGATCTTTAACGGCGGTGCCGTGAAAGGCTGGTAATCTTTTCTCACCGTAATATCATTCAGGACGGGCTTCACGCCCGTCTTGTCATTTATGCAAGCACCTGATTCAATAACGCCCTGTTTTTTATTCATTGAGGAAATACT (double strand) [rcsF promoter probe]”, the binding result is recorded as “binds”.

For “TGCGAGCACTAGGCAAGTTGATGCCGGGCGAAGAAGAGGTGGCAGAGAATCCACGCGCCCGTAGTTCAGTGCTGCGTATCGCAGAGAGGACGAACGCATGATCGGCAGAGTGACAGAGGCCTTAAGCAAGGTTAAAGGGTCGATTGGAAGCAACGAGCGCCATGCTTTGCCTGGCGTGATCGGGGACGACCTTCTGCGGTTTGGGAAACTGCCACTCTGCTTGTTCATTTGCATCATTATTACGGCGATTACCGTGGTCACCACTGCGCATCACACGCGCCTGTTGACCGCGCAGCGTGAACAGCTGGTTCTGGAGCGCGACGCCCTGGATATTGAGTGGCGCAACCTGATCCTCGAAGAGAACGCGCTCGGCGATCACAGTCGGGTTGAGCGGATCGCGACCGAGAAGTTACAGATGCAACACGTCGATCCATCACAAGAAAATATCGTTGTACAGAAATAAGGATTATTGCGACGGATGAAAGCAGCGCCAAAAACGCCTAAAGCAAAACGTCAGGAAGAACAGGCCAACT (double strand) [ftsI promoter probe]”, the binding result was “no binding”.
